Values quoted from earlier work, collected in PMC7767221, “Conjugates Containing Two and Three Trithiolato-Bridged Dinuclear Ruthenium(II)-Arene Units as In Vitro Antiparasitic and Anticancer Agents” (Pharmaceuticals, 2020).

Tested on: A2780 ovarian cancer cells
Design: method as in PMID 30620038
Details: ICP-MS; cited from earlier work

| Substance | Ru content found in the mitochondrial fraction |
| --- | --- |
| [(η^6-p-MeC6H4Pr^i)2Ru2(µ2-S-p-C6H4R)3]^+ with R = p-Bu^t | up to 97% |
| [(η^6-p-MeC6H4Pr^i)2Ru2(µ2-S-p-C6H4R)3]^+ with R = p-Me [A] | up to 97% |
